From publication PMC10513286, “A serpin gene from a parasitoid wasp disrupts host immunity and exhibits adaptive alternative splicing” (2023)

Biological target: Recombinant PrPAP1Xa (activated PrPAP1) (Pieris rapae)

“PpSerpin-1A (Pteromalus puparum serpin 1, isoform A), recombinant (natural protein)” showed a stoichiometry of inhibition (SI) of PrPAP1 of 13.4.

Work on “PpSerpin-1P (Pteromalus puparum serpin 1, isoform P), recombinant (natural protein)” yielded a stoichiometry of inhibition (SI) of PrPAP1 of 197.
